Data as given in PubChem BioAssay AID1259414 (Drosophila RNAi Screening Center, 2018)
In all, the deposit lists about 24,000 reagents; this is an unselected part of those with a known target gene and a result. Of all reagents, about 1,210 (5%) are marked active. 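Inactive calls also include excluded dsRNAs with several or no targets, genes unexpressed in JW18, and well A1, regardless of score.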 Entries without a mark were called inactive. Reagents against one gene are numbered here. Names joined by + are all predicted targets of the reagent. No sequences are given here.

- Aim: 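Fly genes that alter Wolbachia amount inside host cells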 (primary screen)
- Cell system: Drosophila JW18 cells infected with Wolbachia
- Reagents: long dsRNA against Drosophila genes, 0.25 µg dsRNA per well of a 384-well plate
- Timing: 5 days
- Conditions: cells persistently infected with Wolbachia before knock-down; no added drug
- Measurement: 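Imaged fluorescence in situ signal for Wolbachia 23S rRNA per DAPI-counted host cell, given as a robust z-score within each plate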
- Direction: Wolbachia per cell robust z: higher = more Wolbachia per host cell than the plate typical
- Rule for the call: 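Active if absolute robust z reaches 1.5 in two or more of three replicates, leaving out multi- or no-target dsRNAs, genes unexpressed in JW18 and A1 wells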

gene,reagent no.,"Wolbachia per cell robust z, rep 1","Wolbachia per cell robust z, rep 2","Wolbachia per cell robust z, rep 3"
CG4619,1,-0.641,-4.93,0.213
pira (pirate),1,-2.94,0.0178,0.754
Elp3 (Elongator complex protein 3),1,0.338,-0.213,-0.0603
CG31099,1,0.441,0.146,-0.06
CG31099,2,-0.461,0.569,-0.606
CG33493,1,0.163,-1.3,-0.159
CG33493,2,0.764,1.16,0.972
CG30054,1,0.0624,-1.16,-0.271
Syx16 (Syntaxin 16),1,2.12 (active),3.04,1.56
Syx16 (Syntaxin 16),2,-4.82,0.443,0.615
CG17646,1,1.31,-0.000568,0.123
Eaf (ELL-associated factor),1,1.82,0.462,-0.358
Eaf (ELL-associated factor),2,0.761,-2.24,0.675
Eaf (ELL-associated factor),3,-0.414,-0.803,-0.502
Eaf (ELL-associated factor),4,-0.68,1.92,-0.914
CG42590,1,-2.66,0.749,0.607
Nthl1 (Nth-like DNA glycosylase 1),1,-3.18,0.417,0.0521
CG14326,1,0.626,1.25,0.437
CG14326,2,0.528,0.321,1.48
CG42808,1,-0.0936,-0.214,-0.00496
CG16890,1,1.76,-0.196,1.04
CG16890,2,0.335,0.586,0.402
CG32440,1,-6.91,-0.708,-0.926
CG10877,1,0.422,0.0481,0.523
CG5274,1,0.547,0.0455,1.12
CG13639,1,0.224,-1.77,0.324
Calx (Na/Ca-exchange protein),1,-0.696,-0.62,-2.98
Calx (Na/Ca-exchange protein),2,-1.42,-0.455,-9.97
Calx (Na/Ca-exchange protein),3,-1.93,-5.39,-0.798
Calx (Na/Ca-exchange protein),4,-2.43,-1.5,-1.21
Calx (Na/Ca-exchange protein),5,0.359,1.79,1.84
Vps29 (Vacuolar protein sorting 29),1,-0.216,-0.249,-10.7
CG12470,1,0.371,0.668,-1.48
ais (aramis),1,0.414,-1.28,0.701
ais (aramis),2,0.532,0.25,0.371
CG8516,1,-0.365,0.374,-1.24
snoRNA:Psi28S-291 (ncRNA),1,-0.012,0.458,1.81
"SPARC (Secreted protein, acidic, cysteine-rich)",1,0.288,0.326,0.5
"SPARC (Secreted protein, acidic, cysteine-rich)",2,-0.683,0.0651,0.244
"SPARC (Secreted protein, acidic, cysteine-rich)",3,-0.236,-2.12,0.0981
CG15696,1,0.163,0.984,0.294
CG15696,2,0.373,-0.831,-0.323
scrib (scribble),1,-0.494,0.0456,0.721
scrib (scribble),2,-1.16,0.124,0.0546
scrib (scribble),3,0.65,-1.27,0.372
scrib (scribble),4,0.422,0.0604,0.641
scrib (scribble),5,0.396,2.66,0.235
scrib (scribble),6,-0.541,-0.996,-2.5
CG18477 + CG31780,1,1.13,-1.47,-2.02
CG18477 + CG31780,2,-0.276,-1.63,-0.665
CG32267,1,0.0154,1.02,0.401
CG32267,2,0.206,-1.03,0.207
Eip75B (Ecdysone-induced protein 75B),1,-2.31 (active),-1.71,0.376
Eip75B (Ecdysone-induced protein 75B),2,0.679,-1.65,0.112
CG13197,1,-0.21,0.187,0.488
Mo25,1,-2.09 (active),-2.1,0.637
CG10584,1,-1.27,0.753,-0.835
Actn3 (alpha actinin 3),1,0.505,-1.03,-0.137
Fancd2,1,-0.677,-0.684,-0.517
Fancd2,2,-0.042 (active),-2.68,-2.13
Tep2 (Thioester-containing protein 2),1,-0.145,-0.277,-4.51
Tep2 (Thioester-containing protein 2),2,-0.323,0.432,-0.171
CG31075,1,-2.8 (active),1.65,-1.56
htk (hat-trick),1,1.26,-0.137,0.62
htk (hat-trick),2,-2.69 (active),-2.82,0.493
htk (hat-trick),3,1.46,1.18,1.44
ox (oxen),1,-1.73 (active),-3.93,-0.477
CG31533,1,-1.08,-0.321,0.697
CG31533,2,-3.56,-2.91,-1.83

Called active (from the list above):
gene,reagent no.,"Wolbachia per cell robust z, rep 1","Wolbachia per cell robust z, rep 2","Wolbachia per cell robust z, rep 3"
Syx16 (Syntaxin 16),1,2.12 (active),3.04,1.56
Eip75B (Ecdysone-induced protein 75B),1,-2.31 (active),-1.71,0.376
Mo25,1,-2.09 (active),-2.1,0.637
Fancd2,2,-0.042 (active),-2.68,-2.13
CG31075,1,-2.8 (active),1.65,-1.56
htk (hat-trick),2,-2.69 (active),-2.82,0.493
ox (oxen),1,-1.73 (active),-3.93,-0.477
